Measured values from several laboratories, pooled; numbers as filed in NIAID ChemDB.

Common to all: growth or infection tests; agent: HIV-1

Blank or dashed fields: not listed here. ECn is the concentration giving n% inhibition of infection, replication or growth. Conditions beyond the fields shown may differ between rows.

structure | method | cell line | read-out | strain | result
OB(O)CCCCn1cnc2c(Cl)nc(Cl)nc21 | plaque count | CEM + CEM-SS | EC50 | IIIB | 0.99 µM
CC(=O)N[C@@H](CSC(C)=O)C(=O)NCCSC(=O)C(C)C | RT activity | MDM | EC50 | BaL | 45 µM
COC(=O)/C=C1\S/C(=N/N=C/c2c(F)cccc2Cl)NC1=O | cytopathic effect / MTT | MT-4 | EC50 | IIIB | >52.7 µM
CC(=O)O[C@@H]1[C@@H](O)[C@H](COC(=O)/C=C/c2ccc(O)cc2)OC(Oc2ccc(C(=O)/C=C/c3ccc(O)c(O)c3)c(O)c2O)[C@H]1O | cytopathic effect / XTT | C8166 | EC50 | MN | 10 µM
O=C1Nc2ccccc2-c2cccn2[C@H]1Cc1ccc(O)cc1 | cytopathic effect / XTT | MT-2 | EC90 | IIIB | >23 µg/mL
CC(=O)N[C@@H](CSC(C)=O)C(=O)NCCSC(=O)C(C)(C)C | RT activity | MDM | EC50 | BaL | <150 µM
CC(/C=C/C=C\C=C\C=C(/C)C(=O)NC(C)CO)=C\C(C)C(O)/C(C)=C/C(C)CCc1ccccc1 | syncytia | MOLT-4/IIIB + MOLT-4 | EC50 | IIIB | >6.6 µM
COC(=O)/C=C1\S/C(=N/N=C/c2cc([N+](=O)[O-])ccc2O)NC1=O | cytopathic effect / MTT | MT-4 | EC50 | IIIB | >0.088 µM
CC(=O)N[C@@H](CS)C(=O)NCCSC(=O)C(C)C | RT activity | MDM | EC50 | BaL | 110 µM
CC(=O)OC[C@H]1O[C@H](Oc2nc(O[C@H]3O[C@H](COC(C)=O)[C@@H](OC(C)=O)[C@H](OC(C)=O)[C@H]3OC(C)=O)c3ccccc3n2)[C@H](OC(C)=O)[C@@H](OC(C)=O)[C@@H]1OC(C)=O | ELISA | MT-4 | EC50 | NL4-3 | >10 µM
Cc1ccc(-n2sc3ccccc3c2=O)cc1 |  | MDM | EC50 | BaL | 4 µM
CC(=O)N[C@@H](CSC(=O)C(C)C)C(=O)NCCSC(=O)c1ccccc1 | RT activity | MDM | EC50 | BaL | <150 µM
O=S(=O)(O)OC1C(OS(=O)(=O)O)C(OS(=O)(=O)O)C(OS(=O)(=O)O)C(OS(=O)(=O)O)C1OS(=O)(=O)O | syncytia | SUP-T1 + H9 + Sup-T1 | EC50 | IIIB | >1000 µg/mL
COCCOc1cc2nc(-c3cccnc3)nc(Nc3ccc(C(=O)O)cc3O)c2cc1OCCOC | ELISA | MT-4 | EC50 | NL4-3 | >25 µM
COc1ccc(S(=O)(=O)N(CC(C)C)C[C@@H](O)[C@H](Cc2ccccc2)NC(=O)O[C@H]2CCC[C@H]3CCC[C@H]32)cc1 | MTT | MT-2 | EC50 | LAI | 1 µM
O=Cc1ccc2n1CC(=O)Nc1ccccc1-2 | cytopathic effect / XTT | MT-2 | EC90 | IIIB | >50 µg/mL
CNc1n[nH]c2ccc(CN3C(=O)N(Cc4ccc5[nH]nc(NC)c5c4)[C@H](Cc4ccccc4)[C@H](O)[C@@H](O)[C@H]3Cc3ccccc3)cc12 |  | MT-2 | EC50 | RF | <0.0279 µM
O=C1Nc2ccccc2-c2cccn2[C@H]1Cc1ccccc1 | cytopathic effect / XTT | MT-2 | EC90 | IIIB | >21 µg/mL
CC(=O)N[C@@H](CSC(=O)C(C)(C)C)C(=O)NCCSC(C)=O | RT activity | MDM | EC50 | BaL | >150 µM
COc1ccc(S(=O)(=O)N(CC(C)C)C[C@@H](O)[C@H](Cc2ccccc2)NC(=O)OCO[C@H]2C[C@H]3OCC4(CC[C@H](OC)O4)[C@H]3C2)cc1 | MTT | MT-2 | EC50 | LAI | 0.38 µM
NC(N)=NCCC[C@H](NC(=O)[C@H](CCCN=C(N)N)NC(=O)[C@@H](N)CCCN=C(N)N)C(=O)O | syncytia | SUP-T1 + H9 + Sup-T1 | EC50 | IIIB | >1000 µg/mL
O=C(O)c1cc(-n2cccc2)ccc1Cl | p24 | MT-2 | EC50 | AZT-resistant X4 CLADE B | 51.37 µM
COC(=O)/C=C1\S/C(=N/N=C/c2cccc(OC)c2)NC1=O | cytopathic effect / MTT | MT-4 | EC50 | IIIB | >61.3 µM
CN(C)c1nc(-c2cccnc2)nc2ccccc12 | ELISA | MT-4 | EC50 | NL4-3 | >10 µM
Nc1n[nH]c2ccc(CN3C(=O)N(CC4CCC4)[C@H](Cc4ccccc4)[C@H](O)[C@@H](O)[C@H]3Cc3ccccc3)cc12 |  | MT-2 | EC90 | RF | 0.018 µM
COc1ccc(S(=O)(=O)N(CC(C)C)C[C@@H](O)[C@H](Cc2ccccc2)NC(=O)OCO[C@H]2C[C@H]3OCC4(CC[C@@H](OC)O4)[C@H]3C2)cc1 | MTT | MT-2 | EC50 | LAI | 0.38 µM
CC(=O)NC1[C@H](COC[C@@H]2C(CO)O[C@@H](COC[C@@H]3C(CO)O[C@@H](O)C(NC(C)=O)[C@@H]3O)C(NC(C)=O)[C@@H]2O)OC(CO)[C@@H](O)[C@H]1O | syncytia | SUP-T1 + H9 + Sup-T1 | EC50 | IIIB | >1000 µg/mL
Fc1cc(Nc2nc(Nc3cc(F)c(F)c(F)c3)c3cc4c(cc3n2)OCCO4)cc(F)c1F | ELISA | MT-4 | EC50 | NL4-3 | <5 µM
O=c1[nH]ncc(NN/C=C2/C=NC3C=CC=CC23)c1Cl |  | MDM | EC50 | BaL | 0.04 µM
Nc1n[nH]c2ccc(CN3C(=O)N(Cc4ccc5[nH]nc(N)c5c4)[C@H](Cc4ccccc4)[C@H](O)[C@@H](O)[C@H]3Cc3ccccc3)cc12 |  | MT-2 | EC50 | RF | <2.76 µM
CN1C(=O)[C@H](Cc2ccc(O)cc2)n2cccc2-c2ccccc21 | cytopathic effect / XTT | MT-2 | EC90 | IIIB | >5.2 µg/mL
COC(=O)/C=C1\S/C(=N/N=C/c2ccc(N(C)C)cc2)NC1=O | cytopathic effect / MTT | MT-4 | EC50 | IIIB | >87.25 µM
CN(C[C@@H](CCN1CCC2(CC1)CS(=O)c1ccccc12)c1cccc(Cl)c1)S(=O)(=O)c1ccccc1 | p24 | PBMC | EC50 | YU2 | <12.5 µM
CC(=O)N[C@@H](CSC(=O)c1ccccc1)C(=O)NCCSC(=O)C(C)C | RT activity | MDM | EC50 | BaL | <150 µM

The last 4 rows once more:

structure | method | cell line | read-out | strain | result
CN1C(=O)[C@H](Cc2ccc(O)cc2)n2cccc2-c2ccccc21 | cytopathic effect / XTT | MT-2 | EC90 | IIIB | >5.2 µg/mL
COC(=O)/C=C1\S/C(=N/N=C/c2ccc(N(C)C)cc2)NC1=O | cytopathic effect / MTT | MT-4 | EC50 | IIIB | >87.25 µM
CN(C[C@@H](CCN1CCC2(CC1)CS(=O)c1ccccc12)c1cccc(Cl)c1)S(=O)(=O)c1ccccc1 | p24 | PBMC | EC50 | YU2 | <12.5 µM
CC(=O)N[C@@H](CSC(=O)c1ccccc1)C(=O)NCCSC(=O)C(C)C | RT activity | MDM | EC50 | BaL | <150 µM